# From ChEMBL document CHEMBL1275243 (2010)
# How the values were obtained:
# Bacillus anthracis [1] = assay: Antimicrobial activity against Bacillus anthracis A0149 assessed as change in fluorescence threshold cycle at. 03 ug/ml after 4 hrs by real-time PCR viability assay relative to control
# Bacillus anthracis [2] = assay: Antimicrobial activity against pXO1-positive and pXO2 negative Bacillus anthracis 34F2 assessed as change in fluorescence threshold cycle at 0.015 ug/ml after 4 hrs by real-time PCR viability assay relative to control
# Bacillus anthracis [3] = assay: Antimicrobial activity against Bacillus anthracis A0193 assessed as change in fluorescence threshold cycle at 0.015 ug/ml after 4 hrs by real-time PCR viability assay relative to control
# Bacillus anthracis [4] = assay: Antimicrobial activity against Bacillus anthracis A0102 assessed as change in fluorescence threshold cycle at. 03 ug/ml after 4 hrs by real-time PCR viability assay relative to control
# Bacillus anthracis [5] = assay: Antimicrobial activity against Bacillus anthracis A0293 assessed as change in fluorescence threshold cycle at. 03 ug/ml after 4 hrs by real-time PCR viability assay relative to control
# Bacillus anthracis [6] = assay: Antimicrobial activity against Bacillus anthracis A0419 assessed as change in fluorescence threshold cycle at. 03 ug/ml after 4 hrs by real-time PCR viability assay relative to control
# Bacillus anthracis [7] = assay: Antimicrobial activity against Bacillus anthracis A0248 assessed as change in fluorescence threshold cycle at. 03 ug/ml after 4 hrs by real-time PCR viability assay relative to control
# Bacillus anthracis [8] = assay: Antimicrobial activity against Bacillus anthracis A0193 assessed as change in fluorescence threshold cycle at. 03 ug/ml after 4 hrs by real-time PCR viability assay relative to control
# Bacillus anthracis [9] = assay: Antimicrobial activity against Bacillus anthracis A0264 assessed as change in fluorescence threshold cycle at 0.015 ug/ml after 4 hrs by real-time PCR viability assay relative to control
# Bacillus anthracis [10] = assay: Antimicrobial activity against Bacillus anthracis A0293 assessed as change in fluorescence threshold cycle at 0.015 ug/ml after 4 hrs by real-time PCR viability assay relative to control
# Bacillus anthracis [11] = assay: Antimicrobial activity against Bacillus anthracis A0462 assessed as change in fluorescence threshold cycle at 0.015 ug/ml after 4 hrs by real-time PCR viability assay relative to control
# Bacillus anthracis [12] = assay: Antimicrobial activity against pXO1-positive and pXO2 negative Bacillus anthracis 34F2 assessed as change in fluorescence threshold cycle at. 03 ug/ml after 4 hrs by real-time PCR viability assay relative to control
# Bacillus anthracis [13] = assay: Antimicrobial activity against Bacillus anthracis A0488 assessed as change in fluorescence threshold cycle at 0.015 ug/ml after 4 hrs by real-time PCR viability assay relative to control
# Bacillus anthracis [14] = assay: Antimicrobial activity against Bacillus anthracis A0264 assessed as change in fluorescence threshold cycle at. 03 ug/ml after 4 hrs by real-time PCR viability assay relative to control
# Bacillus anthracis [15] = assay: Antimicrobial activity against Bacillus anthracis A0188 assessed as change in fluorescence threshold cycle at. 03 ug/ml after 4 hrs by real-time PCR viability assay relative to control
# Bacillus anthracis [16] = assay: Antimicrobial activity against Bacillus anthracis A03768 assessed as change in fluorescence threshold cycle at. 03 ug/ml after 4 hrs by real-time PCR viability assay relative to control
# Bacillus anthracis [17] = assay: Antimicrobial activity against Bacillus anthracis A0102 assessed as change in fluorescence threshold cycle at 32 ug/ml after 4 hrs by real-time PCR viability assay relative to control
# Bacillus anthracis [18] = assay: Antimicrobial activity against pXO1-positive and pXO2 negative Bacillus anthracis 34F2 assessed as change in fluorescence threshold cycle at 64 ug/ml after 4 hrs by real-time PCR viability assay relative to control
# Bacillus anthracis [19] = assay: Antimicrobial activity against Bacillus anthracis A0488 assessed as change in fluorescence threshold cycle at 64 ug/ml after 4 hrs by real-time PCR viability assay relative to control
# Bacillus anthracis [20] = assay: Antimicrobial activity against Bacillus anthracis A0248 assessed as change in fluorescence threshold cycle at 32 ug/ml after 4 hrs by real-time PCR viability assay relative to control
# Bacillus anthracis [21] = assay: Antimicrobial activity against Bacillus anthracis 240 assessed as change in fluorescence threshold cycle at 4 ug/ml after 4 hrs by real-time PCR viability assay relative to control
# Bacillus anthracis [22] = assay: Antimicrobial activity against Bacillus anthracis A0264 assessed as change in fluorescence threshold cycle at 32 ug/ml after 4 hrs by real-time PCR viability assay relative to control
# Bacillus anthracis [23] = assay: Antimicrobial activity against Bacillus anthracis A0149 assessed as change in fluorescence threshold cycle at 64 ug/ml after 4 hrs by real-time PCR viability assay relative to control
# Bacillus anthracis [24] = assay: Antimicrobial activity against Bacillus anthracis A0419 assessed as change in fluorescence threshold cycle at 32 ug/ml after 4 hrs by real-time PCR viability assay relative to control
# Bacillus anthracis [25] = assay: Antimicrobial activity against Bacillus anthracis A0293 assessed as change in fluorescence threshold cycle at 32 ug/ml after 4 hrs by real-time PCR viability assay relative to control
# Bacillus anthracis [26] = assay: Antimicrobial activity against Bacillus anthracis A0193 assessed as change in fluorescence threshold cycle at 64 ug/ml after 4 hrs by real-time PCR viability assay relative to control
# Bacillus anthracis [27] = assay: Antimicrobial activity against Bacillus anthracis A0462 assessed as change in fluorescence threshold cycle at 32 ug/ml after 4 hrs by real-time PCR viability assay relative to control
# Bacillus anthracis [28] = assay: Antimicrobial activity against Bacillus anthracis A0188 assessed as change in fluorescence threshold cycle at 32 ug/ml after 4 hrs by real-time PCR viability assay relative to control
structure (smiles),measurement,setting,value
O=C(O)c1cn(C2CC2)c2cc(N3CCNCC3)c(F)cc2c1=O [CIPROFLOXACIN],deltaCT,Bacillus anthracis [1],8.01
same,deltaCT,Bacillus anthracis [2],0.61
same,deltaCT,Bacillus anthracis [3],2.33
same,deltaCT,Bacillus anthracis [4],8.49
same,deltaCT,Bacillus anthracis [5],8.59
same,deltaCT,Bacillus anthracis [6],2.3
same,deltaCT,Bacillus anthracis [7],8.59
same,deltaCT,Bacillus anthracis [8],8.71
same,deltaCT,Bacillus anthracis [9],8.93
same,deltaCT,Bacillus anthracis [10],5.87
same,deltaCT,Bacillus anthracis [11],8.63
same,deltaCT,Bacillus anthracis [12],8.95
same,deltaCT,Bacillus anthracis [13],7.6
same,deltaCT,Bacillus anthracis [14],0.7
same,deltaCT,Bacillus anthracis [15],5.34
same,deltaCT,Bacillus anthracis [16],7.83
C[C@H]1c2cccc(O)c2C(=O)C2=C(O)[C@]3(O)C(=O)C(C(N)=O)=C(O)[C@@H](N(C)C)[C@@H]3[C@@H](O)[C@@H]21.O [DOXYCYCLINE],deltaCT,Bacillus anthracis [17],6.47
same,deltaCT,Bacillus anthracis [18],7.54
same,deltaCT,Bacillus anthracis [19],8.13
same,deltaCT,Bacillus anthracis [20],6.16
same,deltaCT,Bacillus anthracis [21],8.32
same,deltaCT,Bacillus anthracis [22],7.54
same,deltaCT,Bacillus anthracis [23],8.6
same,deltaCT,Bacillus anthracis [24],7.61
same,deltaCT,Bacillus anthracis [25],7.74
same,deltaCT,Bacillus anthracis [26],7.97
same,deltaCT,Bacillus anthracis [27],5.91
same,deltaCT,Bacillus anthracis [28],6.92
